Target: SseK2 (Salmonella enterica, UniProt P0DUJ8)
Test: western blot of FADD arginine glycosylation
Settings: 1 μM human FADD, 1 mM UDP-GlcNAc, 10 mM MnCl2, RT; for % inhibition: 200 nM enzyme, 50 mM Tris-HCl pH 7.4

By UniProt entry, the sequences of proteins in these tests, tags left out. Where a name states a change or a piece, a line headed by the entry shows the natural chain unless it says otherwise.
UniProt P0DUJ8: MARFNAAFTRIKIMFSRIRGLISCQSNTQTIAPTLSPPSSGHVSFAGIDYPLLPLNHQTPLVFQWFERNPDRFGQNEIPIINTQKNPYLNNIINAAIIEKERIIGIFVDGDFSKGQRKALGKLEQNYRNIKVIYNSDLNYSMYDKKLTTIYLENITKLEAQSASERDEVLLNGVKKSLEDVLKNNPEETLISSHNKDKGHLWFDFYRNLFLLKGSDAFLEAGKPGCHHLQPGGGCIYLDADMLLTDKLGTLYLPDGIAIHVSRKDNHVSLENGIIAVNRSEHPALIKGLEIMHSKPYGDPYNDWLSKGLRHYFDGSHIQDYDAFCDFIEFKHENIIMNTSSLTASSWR

| Compound | % inhibition | western blot of FADD arginine glycosylation (pH 7.4) |
| --- | --- | --- |
| O=c1cc(-c2ccccc2Cl)oc2c(NS(=O)(=O)c3cc(Cl)cc(Cl)c3O)ccc(O)c12 [KUC100066N] | these compounds both inhibited FADD glycosylation by SseK2 in a concentration-dependent manner |  |
| CC(=O)N[C@H]1[C@@H](OP(=O)(O)OP(=O)(O)OC[C@H]2O[C@@H](n3ccc(=O)[nH]c3=O)[C@H](O)[C@@H]2O)O[C@H](CO)[C@@H](O)[C@@H]1O |  | SseK2 glycosylates the human FADD protein |
| O=C(O)c1cc(-c2ccc(-c3c(-c4ccco4)noc3-c3ccccc3)cc2)nc2ccccc12 [KUC102644N] | these compounds both inhibited FADD glycosylation by SseK2 in a concentration-dependent manner |  |

— PMC6305410, “High-Throughput Screening for Bacterial Glycosyltransferase Inhibitors” (Frontiers in Cellular and Infection Microbiology, 2018)
